# Single amino acid changes in Zika NS2B-NS3 and viral growth

Source: Ni et al. 2025 (doi:10.1038/s41467-025-63602-z), supplementary data.

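Pools of virus carrying all single amino acid changes were selected for growth in Huh-7.5 cells. The effect is the change in frequency of a mutant, normalised to wild type, as a mean of three replicate libraries (two for positions 207-308). The study looked for pockets that tolerate few changes, as a guide for inhibitor design.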

Chain scanned (Zika virus MR766; NS2B from position 2 to 131, then the start of NS3):
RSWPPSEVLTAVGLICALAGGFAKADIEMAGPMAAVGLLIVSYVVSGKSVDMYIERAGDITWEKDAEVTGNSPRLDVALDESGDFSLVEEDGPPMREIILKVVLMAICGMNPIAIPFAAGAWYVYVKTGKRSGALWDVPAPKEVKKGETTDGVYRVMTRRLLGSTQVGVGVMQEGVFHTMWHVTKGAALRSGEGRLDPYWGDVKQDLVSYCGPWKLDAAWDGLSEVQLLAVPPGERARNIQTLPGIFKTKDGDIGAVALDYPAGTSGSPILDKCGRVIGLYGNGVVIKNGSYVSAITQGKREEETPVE

Scale: log2 effect, wild type = 0; the lower, the more harmful to the virus. Substitutions are written as wild-type residue, site number, new residue. The authors count -1 or higher as tolerated. Position 1 is the last residue of NS2A. Positions 1-103, 104-206 and 207-308 were made and measured as separate libraries. Values above 0 are not proof of better growth: six high scorers were tested one by one, five grew less well than wild type and one about as well. Stop codons (*) centre on -7 and mark the level of dead virus.

{"substitution": "T10G", "log2 growth effect": -0.40}
{"substitution": "A25H", "log2 growth effect": -3.81}
{"substitution": "I27Q", "log2 growth effect": -3.07}
{"substitution": "G31E", "log2 growth effect": -5.09}
{"substitution": "V41C", "log2 growth effect": -1.35}
{"substitution": "D51M", "log2 growth effect": -5.76}
{"substitution": "Y53K", "log2 growth effect": -5.92}
{"substitution": "I54E", "log2 growth effect": -5.57}
{"substitution": "D59*", "log2 growth effect": -6.92}
{"substitution": "P73H", "log2 growth effect": -3.64}
{"substitution": "S82T", "log2 growth effect": -7.89}
{"substitution": "P94I", "log2 growth effect": -2.10}
{"substitution": "V103Y", "log2 growth effect": -5.86}
{"substitution": "M110P", "log2 growth effect": -6.61}
{"substitution": "I113N", "log2 growth effect": -5.57}
{"substitution": "A118*", "log2 growth effect": -6.23}
{"substitution": "G120W", "log2 growth effect": -3.06}
{"substitution": "Y123R", "log2 growth effect": -7.18}
{"substitution": "K130M", "log2 growth effect": -5.73}
{"substitution": "L135N", "log2 growth effect": -6.95}
{"substitution": "K145*", "log2 growth effect": -6.38}
{"substitution": "G147Y", "log2 growth effect": -4.41}
{"substitution": "V167E", "log2 growth effect": -6.22}
{"substitution": "G186W", "log2 growth effect": -5.47}
{"substitution": "L189R", "log2 growth effect": -5.95}
{"substitution": "N239V", "log2 growth effect": -6.27}
{"substitution": "I240Q", "log2 growth effect": -6.09}
{"substitution": "T242E", "log2 growth effect": -4.98}
{"substitution": "G245V", "log2 growth effect": -6.91}
{"substitution": "K248V", "log2 growth effect": 0.47}
{"substitution": "K250H", "log2 growth effect": -5.16}
{"substitution": "D251A", "log2 growth effect": -3.64}
{"substitution": "A263C", "log2 growth effect": 1.10}
{"substitution": "S266G", "log2 growth effect": -5.83}
{"substitution": "N283Y", "log2 growth effect": -5.97}
{"substitution": "K300Q", "log2 growth effect": -3.31}
{"substitution": "E304W", "log2 growth effect": 0.01}

The first 5 entries again:

substitution	log2 growth effect
T10G	-0.40
A25H	-3.81
I27Q	-3.07
G31E	-5.09
V41C	-1.35